Consider 31 molecules from US20150023988A1.

Where “and” joins values, the source holds several entries; their conditions need not be identical. Equal values may be shown once. Where only a bound is given, the exact number is not on record here.

Common to all, as to assay: cell-based or functional assay
Experiment [1] concerns the target human voltage-gated sodium channel Nav1.5 (human) (UniProt Q14524).
The target in experiment [2] is human voltage-gated sodium channel Nav1.7 (human) (UniProt Q15858).
The target in experiment [3] is human voltage-gated sodium channel Nav1.3 (human) (UniProt Q9NY46).
For experiment [4], the target named is human voltage-gated sodium channel Nav1.4 (human) (UniProt P35499).
The target in experiment [5] is human voltage-gated sodium channel Nav1.4 (human), P35499.
In experiment [6] the target is human voltage-gated sodium channel Nav1.3 (human), Q9NY46.
Experiment [7] concerns the target human voltage-gated sodium channel Nav1.5 (human), Q14524.

In experiment [1], “[Glu20]JzTx-V(1-29) (peptide; modification not given)” came in with an IC50 (IonWorks Quattro) of 9.8 µM and a PX hNav1.5 Tonic IC50 of 9.33 µM. In experiment [2], this molecule gave an IC50 (IonWorks Quattro) of 0.36 µM and a PX hNav1.7 Tonic IC50 of 0.007 µM. Besides, in experiment [3], the IC50 (IonWorks Quattro) is greater than 5 µM. In experiment [4], the IC50 (IonWorks Quattro) was greater than 5 µM, the Nav1.4/Nav1.7 (ratio of IC50s) came out at 14 and the PX hNav1.4 Tonic IC50 came out at 1.25 µM.
Turning to “[Glu20;Nva28]JzTx-V(1-29) (peptide; modification not given)”, the IC50 (IonWorks Quattro) in experiment [1] is 8.9 µM and 15.8 µM; in experiment [2] it was 0.08 µM and 0.15 µM; in experiment [3], greater than 5 µM; in experiment [4], greater than 5 µM. For the same molecule, in experiment [4], the Nav1.4/Nav1.7 (ratio of IC50s) was 66 and 34.
On to “[Glu20;Nle24;Tyr28]JzTx-V(1-29) (peptide; modification not given)”, for which the IC50 (IonWorks Quattro) in experiment [1], in experiment [2], in experiment [3] and in experiment [4] was greater than 5 µM throughout.
For the molecule “[Glu20;2-Nal24;Tyr28]JzTx-V(1-29) (peptide; modification not given)”, the IC50 (IonWorks Quattro) in experiment [1] is greater than 7 µM; in experiment [2] it was 1 µM; in experiment [3] it was greater than 7 µM; in experiment [4] it was greater than 7 µM.
As to “[Glu20;Trp29]JzTx-V(1-29) (peptide; modification not given)”, the IC50 (IonWorks Quattro) in experiment [1] was 6.9 µM; in experiment [2], 0.03 µM; in experiment [3], 3.62 µM; in experiment [4], greater than 5 µM. Further, the Nav1.4/Nav1.7 (ratio of IC50s) in experiment [4] was determined as 178.
On to “[Glu20;Val24;Tyr28]JzTx-V(1-29) (peptide; modification not given)”, for which the IC50 (IonWorks Quattro) in experiment [1], in experiment [2], in experiment [3] and in experiment [4] was greater than 5 µM in each case.
As to “[Glu20;Asp28]JzTx-V(1-29) (peptide; modification not given)”, the IC50 (IonWorks Quattro) is 13.9 µM in experiment [1], 1.34 µM in experiment [2], greater than 5 µM in experiment [3] and greater than 5 µM in experiment [4]. For the same molecule, the Nav1.4/Nav1.7 (ratio of IC50s) in experiment [4] turned out to be 4.
Regarding “[Glu20,28]JzTx-V(1-29) (peptide; modification not given)”, the IC50 (IonWorks Quattro) in experiment [1] was 15.8 µM and 7.5 µM; in experiment [2], 0.95 µM and 1.44 µM; in experiment [3], greater than 5 µM; in experiment [4], greater than 5 µM. Also, in experiment [4], the Nav1.4/Nav1.7 (ratio of IC50s) is 5 and 3.
“[Glu20;Asn24;Tyr28]JzTx-V(1-29) (peptide; modification not given)”: the IC50 (IonWorks Quattro) in experiment [1], in experiment [2], in experiment [3] and in experiment [4] was greater than 5 µM throughout.
On to “[Tyr20]JzTx-V(1-29) (peptide; modification not given)”, for which, in experiment [1], the IC50 (IonWorks Quattro) was found to be 10.8 µM and the PX hNav1.5 Tonic IC50 is greater than 10 µM. In experiment [2], this molecule had an IC50 (IonWorks Quattro) of 0.09 µM and a PX hNav1.7 Tonic IC50 of 0.0059 µM. This molecule also showed an IC50 (IonWorks Quattro) in experiment [3] greater than 5 µM. In experiment [4], the IC50 (IonWorks Quattro) worked out at 4 µM, the Nav1.4/Nav1.7 (ratio of IC50s) stood at 43 and the PX hNav1.4 Tonic IC50 came to 1.57 µM.
As to “[Val20]JzTx-V(1-29) (peptide; modification not given)”, the IC50 (IonWorks Quattro) was 7.1 µM in experiment [1], 0.1 µM in experiment [2], 3.37 µM in experiment [3] and 3 µM in experiment [4]. Also, the Nav1.4/Nav1.7 (ratio of IC50s) in experiment [4] came out at 31.
For the molecule “[Glu20;Ser28]JzTx-V(1-29) (peptide; modification not given)”, the IC50 (IonWorks Quattro) in experiment [1] was 13.9 µM and 9.2 µM; in experiment [2], 0.08 µM and 0.15 µM; in experiment [3] it was greater than 5 µM; in experiment [4], greater than 5 µM. Also, in experiment [4], the Nav1.4/Nav1.7 (ratio of IC50s) is 62 and 34.
As to “[Glu20;Val28]JzTx-V(1-29) (peptide; modification not given)”, the IC50 (IonWorks Quattro) is 12 µM in experiment [1], 0.08 µM in experiment [2], 4.85 µM in experiment [3] and 4 µM in experiment [4]. The Nav1.4/Nav1.7 (ratio of IC50s) in experiment [4] was found to be 51.
With “[Gly20]JzTx-V(1-29) (peptide; modification not given)”, in experiment [1], the IC50 (IonWorks Quattro) was 9.8 µM and the PX hNav1.5 Tonic IC50 stood at 14.1 µM. In experiment [2], this molecule showed an IC50 (IonWorks Quattro) of 0.06 µM and a PX hNav1.7 Tonic IC50 of 0.0078 µM. In experiment [3], the IC50 (IonWorks Quattro) is 0.98 µM. Further, in experiment [4], the IC50 (IonWorks Quattro) was determined as 1.9 µM, the Nav1.4/Nav1.7 (ratio of IC50s) is 29 and the PX hNav1.4 Tonic IC50 worked out at 0.197 µM.
Consider “[Glu20;Tyr28]JzTx-V(1-29) (peptide; modification not given)”, for which the IC50 (IonWorks Quattro) in experiment [1] was 8 µM; in experiment [2], 0.09 µM; in experiment [3] it was 2.01 µM; in experiment [4] it was greater than 3.5 µM. Besides, the Nav1.4/Nav1.7 (ratio of IC50s) in experiment [4] was 41.
The like results for “[Glu20;Cit28]JzTx-V(1-29) (peptide; modification not given)” were, in that order, 12 µM, 0.11 µM, greater than 5 µM, greater than 5 µM and 46.
As for “[Glu20;Leu24;Tyr28]JzTx-V(1-29) (peptide; modification not given)”, the IC50 (IonWorks Quattro) in experiment [1], in experiment [2], in experiment [3] and in experiment [4] was greater than 5 µM each time.
For the molecule “[Asp20]JzTx-V(1-29) (peptide; modification not given)”, in experiment [1], the IC50 (IonWorks Quattro) came to 11.1 µM and the PX hNav1.5 Tonic IC50 turned out to be 3.2 µM. Moreover, in experiment [2], the IC50 (IonWorks Quattro) came to 0.09 µM and the PX hNav1.7 Tonic IC50 amounted to 0.749 µM. This molecule also gave an IC50 (IonWorks Quattro) in experiment [3] greater than 5 µM. Moreover, in experiment [4], the IC50 (IonWorks Quattro) was greater than 5 µM and the PX hNav1.4 Tonic IC50 is 7.6 µM.
Take “[Ser20]JzTx-V(1-29) (peptide; modification not given)”: the IC50 (IonWorks Quattro) in experiment [1] is 9.2 µM; in experiment [2], 0.03 µM; in experiment [3] it was 0.29 µM; in experiment [4], 0.4 µM. Besides, the Nav1.4/Nav1.7 (ratio of IC50s) in experiment [4] was determined as 17.
The like results for “[Glu20;Cpa28]JzTx-V(1-29) (peptide; modification not given)” were, in that order, 16.7 µM, 2.35 µM, greater than 5 µM, greater than 5 µM and 2.
For “[Glu20;Leu28]JzTx-V(1-29) (peptide; modification not given)” the same measures were 6.7 µM, 0.41 µM, greater than 5 µM, greater than 5 µM and 12.
On to “[Ile20]JzTx-V(1-29) (peptide; modification not given)”, for which the IC50 (IonWorks Quattro) in experiment [1] is 8.6 µM; in experiment [2] it was 0.09 µM; in experiment [3] it was 2.2 µM; in experiment [4], 1.3 µM. Besides, the Nav1.4/Nav1.7 (ratio of IC50s) in experiment [4] came out at 15.
For the molecule “[Glu20;1-Nal24;Tyr28]JzTx-V(1-29) (peptide; modification not given)”, the IC50 (IonWorks Quattro) in experiment [1] was greater than 7 µM; in experiment [2], 0.3 µM; in experiment [3], greater than 7 µM; in experiment [4], greater than 7 µM.
For “[Glu20;Gly28]JzTx-V(1-29) (peptide; modification not given)”, the IC50 (IonWorks Quattro) in experiment [1] is 10.9 µM and 11.1 µM; in experiment [2], 0.3 µM and 0.37 µM; in experiment [3], greater than 5 µM; in experiment [4], greater than 5 µM. Moreover, the Nav1.4/Nav1.7 (ratio of IC50s) in experiment [4] is 17 and 13.
Consider “[Glu20;Abu28]JzTx-V(1-29) (peptide; modification not given)”, for which the IC50 (IonWorks Quattro) in experiment [1] was 8.2 µM and 11.1 µM; in experiment [2] it was 0.17 µM and 0.21 µM; in experiment [3], greater than 5 µM; in experiment [4] it was greater than 5 µM. Moreover, the Nav1.4/Nav1.7 (ratio of IC50s) in experiment [4] is 29 and 24.
As to YCQKWMWTCDSKRACCAGLECKLWCRKII (modifications not checked) [[Atz(NPEG10)17;Glu20]JzTx-V(1-29)], in experiment [5], the IC50 (IonWorks Quattro) was greater than 5 µM and the Nav1.4/Nav1.7 (ratio of IC50s) worked out at 28. In experiment [6], this molecule yielded an IC50 (IonWorks Quattro) greater than 5 µM.
In the case of YCQKYMWTCDSKRACCEGLECKLWCRKYI (modifications not checked) [[Tyr5,28;Glu20]JzTx-V(1-29)], the IC50 (IonWorks Quattro) in experiment [5], in experiment [6] and in experiment [7] was greater than 5 µM each time.
For the molecule YCQKWMWACDSKRACCEGLECKLWCRKII (modifications not checked) [[Atz(NPEG10)8;Glu20]JzTx-V(1-29)], in experiment [5], the IC50 (IonWorks Quattro) was greater than 5 µM and the Nav1.4/Nav1.7 (ratio of IC50s) stood at 1. In experiment [6], the IC50 (IonWorks Quattro) was greater than 5 µM.
YCQKFMWTCDSKRACCEGLECKLWCRKYI (modifications not checked) [[Phe5;Glu20;Tyr28]JzTx-V(1-29)]: the IC50 (IonWorks Quattro) in experiment [5], in experiment [6] and in experiment [7] was greater than 5 µM in each case.
YCQKVMWTCDSKRACCEGLECKLWCRKYI (modifications not checked) [[Val5;Glu20;Tyr28]JzTx-V(1-29)]: the IC50 (IonWorks Quattro) in experiment [5], in experiment [6] and in experiment [7] was greater than 5 µM in each case.
Regarding YCQKVMWTCDSKRACCEGLECKLWCRKYI (modifications not checked) [[Nva5;Glu20;Tyr28]JzTx-V(1-29)], the IC50 (IonWorks Quattro) in experiment [5], in experiment [6] and in experiment [7] was greater than 5 µM in each case.
